Human monoclonal antibodies against the spike receptor-binding domain (heavy:light variable regions). IC50 against pseudoviruses bearing the spike of naturally observed variants; lower = stronger; >10 µg/ml means not reached at the top dose. No active / inactive call. The stated detection limit is 0.0005 µg/ml; values near or below 0.001 µg/ml lie at the floor of the assay.
B1: DH1143 (protein)
chain 1: QVQLVQSGAEVKKPGASVKVSCKASGYTFTSYYMHWVRQAPGQGLEWMGIITPSGGSTSYAQKFQGRVTMTRDTSTSTVYMELSSLRSEDTALYYCARERVGVGIYSRSSESDFPTFDPWGQGTLVTVSS
chain 2: DIQMTQSPSSLSASVGDTVTITCRASQNINNYLNWYQQKPGKAPKLLIYAASSLQSGVPSRFSGSGSETDFTLTISSLQPEDFATYYCQQSYSTPQYSFGQGTKLEIK
B2: BD56-202 (protein)
chain 1: EEHLVESGGGLVQPGGSLRLSCAASGFMFNSYSMNWVRLAPGKGPEWVSHISSTSTNIYYADSVKGRFIISRDNAKKSLYLQMNSLRAEDTAVYFCARDSKTDSSGPSAEWFDPWGQGTLVTVSS
chain 2: SYVLTQPPSVSVAPGKTARITCGGNNIGSKSVHWYQRKPGQAPVVVIFYDSDRPSTIPERFSGSNSGNTATLTINRVEAGDEADYYCQVWDSGVVFGGGTKLTVL
B3: BD56-204 (protein)
chain 1: EVQLVQSGAEVKKPGEPLKISCSVSGYKFTSYWIGWVRQMPGKGLEWMGIIYPGDSNTRYSPSFQGQVTISVDKSISTAYLQWSSLKASDTAMYYCARLYYYGSGSYYNPDPDWFDPWGQGTLVTVSS
chain 2: QSVLTQPPSVSGAPGQRVTISCTGSSSNIGAGYDVHWYQQLPGTAPKLLIYVNNNRPSGVPDRVSGSKSGTSASLAITGLQAEDEADYYCQSYDSSLSVWVFGGGTKLTVL
B4: BD56-208 (protein)
chain 1: QVQLVQSGAEVKKPGASLKVSCKASGNTFTTYYIHWVRQAPGQGLEWMGIINPSGGSTSYAPKFQGRVTMTSDASTSTIYIDLRSLRSDDTAVYYCARGGVVPAARGEFDYWGQGTLVTVSS
chain 2: DIQMTQSPSTLSASVGDRVTITCRASQSISNWLAWYQQKPGKPPKLLIYKASNLESGVPSRFSGSGSGTEFTLTISSLQPDDFATYYCQEFNSNLYTFGQGTKVEIK
B5: BD56-218 (protein)
chain 1: EVQLVESGGGLVKPGGSLRLSCAASGFTFSDAWMSWVRQAPGKGLEWVGRVKRKADGGTPDYAAPVKGRFAISRDDSRNRLYLQMNSLKAEDTAVYYCTTTHNWNGEPFDYWGQGTLVTVSS
chain 2: DIEMTQSPSSLSASVGDRVTITCRASQSISRYLNWYQHKVGKAPKVLIYAASSLHSGVPSRFSGSGSGTDFTLTISSLQPEDFATYYCQQSYSSPLTFGGGTKVEFK
B6: BD56-222 (protein)
chain 1: QLQLQESGPGLVKPSETLSVTCTVSHASISSSVYYWAWIRQPPGKGLEWIGSMYYGGSTYYNPSLKSRVTISADSSKIQFTLELTSVTAADTAVYYCARHDYTPFGDFFDHWGQGTLVTVSS
chain 2: EILMTQSPATLSVSPGESATLSCRASQSVRSKVAWYQQKPGQAPRLLIYGASTRATDIPARFSGSGSGTEFTLTISSLQSEDFAVYYCQQYDDWPPLTFGGGTKVDIK
B7: BD56-223 (protein)
chain 1: QVQLVQSGAEVKKPGASVKVSCEASGFSFSSYYIHWVRQAPGQGLEWMGIINPEAGSTTYAQKFQGRVTMTRDTSTSTVYVELSSLRSEDTAVYYCARDEGYIPYTNSPDYWGQGTLVTVSS
chain 2: QSALTQPASVSGSPGQSITISCTGTNSDVGSYNRVSWYLQYPGKAPRLIIYEVTKRPSGVSNRFSGSKSGNTASLTISGLQAEDEADYYCCSYARSSTWVFGGGTRLTVL
B8: DH1151 (protein)
chain 1: QVQLVQSGAEVKKPGASVKVSCKASGYTFTDYYMHWVRQAPGQGLEWMGRINPSSGGTNYVQKFQGRVTMTRDTSISTSYMELSRLRSDDTAVYYCARDLEDFWSGYPPLGYALDVWGQGTTVTVSS
chain 2: NFMLTQPHSVSESPGKTVTISCTRSSGSIASNYVQWYQQRPGSAPTTVIYEDNQRPSGVPDRFSGSIDSSSNSASLTISGLKTEDEADYYCQSYDISNVIFGGGTQLTVL
B9: BD56-234 (protein)
chain 1: EVQLVESGGGLVQPGGSLRLSCAASGVTVRSNYMSWVRQAPGKGLEWVSLIYSGGSTFYADSVRGRFTISRDNSKNTLYLQMNSLRAEDTAVYYCARDLQVFGMDVWGQGTTVTVSS
chain 2: IQLTQSPSSLSASVGDTLTITCRASQGISSDLAWYQQKPGKAPKLLIYAASTLQSGVPSRFSGSGSGTDFTLTISSLQPEDFATYYCQQLNSYTYPFGQGTKLEIK
B10: BD56-265 (protein)
chain 1: QVQLVQSGAEVKKPGASVKVSCKASGYTFTGYFLYWVRQAPGQGLQWMGRINPNSGDTDYAQKFQGRVTMTRDTSISTAYLEMSRLRSDDTAVYYCAREPGYDILTDSYGDYWGQGTLVTVSS
chain 2: EIVMTQSPATLSVSPGERATLSCRASQSVSNNLAWYQQKPGQAPRLLIYGASTRATGIPARFSGSGSGTEFTLTINSLQSEDFAVYYCQHYHNWPPWTFGQGTKVEIK
B11: BD56-326 (protein)
chain 1: QVQLVESGGGVVQPGRSLRLSCAASGFTFRRYGMHWVRQAPGKGLEWVAVTSYDGTKEYYADSVKGRFTISRDNSKNTLYLQMNSLRAEDTAVYYCAKVAGEYCSGGDCLTGTFDYWGQGTLVTVSS
chain 2: DIQMTQSPSTLSASVGDRVTIACRASQNIRRWLAWYQQKPGKAPKLLIYQAFNLESGVPSRFSGSGSGTEFTLTISSLQPDDFATYYCQQYNSFNSFGQGTILEIK
B12: BD56-327 (protein)
chain 1: EVQLQQWGAGLLKPSETLSLTCAVYGGSLSDYYWSWLRQPPGKGLEWIGEINHSGSTNYNPSLKSRVTISVDTSKNQFSLKLSSVTAADTAVYFCARVGGSYYSAEYFQYWGQGTLVTVSS
chain 2: DIVLTQSPGTLSLSPGERATLSCRASQSVRSSSLAWYQQKPGQAPRLLIYGASSRATGIPDRFNGSGSGTDFTLTISRLEPDDFAVYYCQQYGSSPLTFGGGTKVEIK

Legend:
Assay in all cases: pseudovirus neutralization IC50; higher = weaker neutralization
[1] = molecular target: SARS-CoV-2 Omicron BA.1 spike pseudovirus
Protocol: (§1)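 Single-round VSV luciferase pseudovirus mixed with antibody dilutions for 1 h and put on Huh-7 cells for about a day; IC50 from the dose curve.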

[2] = molecular target: SARS-CoV-2 Omicron BA.2 spike pseudovirus
Protocol: as §1

[3] = molecular target: SARS-CoV-2 Omicron BA.2.75 spike pseudovirus
Protocol: as §1

[4] = molecular target: SARS-CoV-2 Omicron BA.5 spike pseudovirus
Protocol: as §1

[5] = molecular target: SARS-CoV-2 Omicron BQ.1.1 spike pseudovirus
Protocol: as §1

[6] = molecular target: SARS-CoV-2 Omicron XBB spike pseudovirus
Protocol: as §1

[7] = molecular target: SARS-CoV-2 early D614G spike pseudovirus
Protocol: as §1

| Binder | pseudovirus neutralization IC50 [1] [µg/mL] | pseudovirus neutralization IC50 [2] [µg/mL] | pseudovirus neutralization IC50 [3] [µg/mL] | pseudovirus neutralization IC50 [4] [µg/mL] | pseudovirus neutralization IC50 [5] [µg/mL] | pseudovirus neutralization IC50 [6] [µg/mL] | pseudovirus neutralization IC50 [7] [µg/mL] |
| --- | --- | --- | --- | --- | --- | --- | --- |
| B1 | > 10 | > 10 | > 10 | > 10 | > 10 | > 10 | 0.681 |
| B2 | > 10 | > 10 | > 10 | > 10 | > 10 | > 10 | > 10 |
| B3 | 3.71 | 3.23 | 2.9 | 3.04 | 2.44 | 2.36 | 1.19 |
| B4 | 3.06 | 4.28 | 4.94 | 3.63 | 5.42 | 4.47 | 5.68 |
| B5 | 8.26 | 7.98 | 7.06 | 5.79 | 6.6 | 9.4 | > 10 |
| B6 | 1.67 | 3.58 | 3.87 | 2.43 | 3.13 | 3 | 1.61 |
| B7 | > 10 | > 10 | > 10 | > 10 | > 10 | > 10 | > 10 |
| B8 | 0.543 | 0.448 | 0.579 | > 10 | > 10 | > 10 | 0.106 |
| B9 | 0.0809 | 0.0386 | > 10 | 0.332 | > 10 | > 10 | 0.00104 |
| B10 | 0.0116 | 0.00967 | 0.13 | > 10 | > 10 | > 10 | 0.111 |
| B11 | > 10 | > 10 | > 10 | > 10 | > 10 | > 10 | > 10 |
| B12 | 0.262 | 0.36 | 0.226 | 0.529 | 0.792 | > 10 | 1.23 |
